Data: patent US8809377B2, “Deubiquitinase inhibitors and methods for use of the same” (The Regents of the University of Michigan, priority 2010, dated 2014)

Test system: Listeria monocytogenes
Test: Listeria monocytogenes infection of macrophages, CFU
Details: RAW264.7 macrophages, 5 μM, 8 hr infection, MOI 1

## CCC[C@H](NC(=O)/C(C#N)=C/c1cccc(Br)n1)c1ccccc1 [WP1130]
  reduction in Listeria monocytogenes titers (intracellular colony forming units): 3-10 fold
